# The list shows a part of the results, in another mix than the full data. The source made the active and inactive calls. No stated cut-off is given here; in the data, active means inhibition above about 50%; inactive means the rest.
# Assay: Leishmania major promastigote growth inhibition, primary screen (AID 1063);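 further: promastigotes grown with compound for 44 hours at 28 °C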
# Settings: Leishmania major promastigotes, resazurin fluorescence viability; at 10 µM; stronger effect = higher value
row,Compound,inhibition
1,CCOP(C)(=S)SCC(=O)NC(C)C(=O)O (stereo unspecified),inactive: -2.37%

# From PubChem BioAssay AID1063 (University of Pittsburgh Molecular Library Screening Center, 2008)
